The target of series [1] is T1, CrgA (Pseudomonas aeruginosa SJTD-1) (UniProt Q9I4D7).
T1 sequence (looked up, limits assumed): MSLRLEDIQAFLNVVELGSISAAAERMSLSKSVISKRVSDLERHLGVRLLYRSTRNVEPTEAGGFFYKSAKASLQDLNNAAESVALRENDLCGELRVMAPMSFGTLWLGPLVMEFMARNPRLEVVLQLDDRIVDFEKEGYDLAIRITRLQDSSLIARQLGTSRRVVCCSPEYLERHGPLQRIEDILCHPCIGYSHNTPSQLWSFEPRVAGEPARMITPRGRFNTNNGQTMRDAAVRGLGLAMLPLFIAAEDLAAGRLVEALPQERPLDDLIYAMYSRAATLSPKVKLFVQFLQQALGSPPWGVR
The experiment in a line: DNase I footprinting. The note with it: 8:1 protein/DNA, bs1 and bs2 protected; recombinant protein; label: 5'-FAM on reverse strand; probe letters rebuilt from the primers and the genome.

Series [2] concerns the target T1, CrgA (Pseudomonas aeruginosa SJTD-1). The experiment in a line: EMSA. The note with it: EMSA: 20 mM Tris-HCl, 50 mM NaCl, 1 mM DTT, 0.1 mM EDTA, pH 7.5, 37 C 30 min, 4 pmol DNA in 20 uL, 8% native PAGE, footprinting at 25 C, recombinant protein, label: 5'-FAM on strand 2. For orientation: In EMSA bound probe runs differently from free probe, usually more slowly.
Setting [3] is: acetyl CoA 20-500 pmol, no release.
The mark [4] stands for this setting: hexadecyl (palmitoyl) CoA 20-500 pmol, releases binding.
The mark [5] stands for this setting: octadecyl CoA (legend: oleyl CoA) 20-500 pmol, releases binding.

The exact form of at least one protein or probe is not confirmed. For some of these results: Weaker means in comparison with the reference protein, sequence or condition of that experiment. For some of these results: At least one verdict rests on a figure or table, not on a statement of the authors. Where a protein sequence is shown, tags need not be part of it.

The text below walks through data of PMC6422896, “CrgA Protein Represses AlkB2 Monooxygenase and Regulates the Degradation of Medium-to-Long-Chain n-Alkanes in Pseudomonas aeruginosa SJTD-1” (Frontiers in Microbiology, 2019).

As for “ACGTCATGGTGATCCTTTTATCCAGGGGCGCGTTTTCCGGGGGTATATGGATGGGAAGTGTAACACAGGGCGTTACCCCGCCGGCTTCCCGGCGAAGCGGCGGACAGAACGAAGGTTGGGATGGGGCAGGCCGGCCAAGGGAGGACAATTGTCAGACAATCTAACAAGATAAATACGAGGACTTCCC (double strand) [alkB2-U187]”, in series [1], the binding result is listed as “binds”.

As to “AGGACAATTGTCAGACAATCTAACAACAGAACGAAGATAAATACGAGGACTTCCC (double strand) [alkB2-b5]”, the binding result in series [2] is “binds more weakly”.

Consider “AGGACAATTGTCAGACAATCTAACAAGCGGCGGACAGAACGAAGATAAATACGAGGACTTCCC (double strand) [alkB2-b2]”, for which the binding result is listed as “binds” in series [2] (setting [3]), “binds more weakly” in series [2] (setting [4]) and “binds more weakly” in series [2] (setting [5]).

On to “AGGACAATTGTCAGACAATCTAACAGCCGGCCAAGGGAGATAAATACGAGGACTTCCC (double strand) [alkB2-b4]”, for which, in series [2], the binding result was “binds more weakly”.

As to “AGGACAATTGTCAGACAATCTAACAGGGATGGGGCAGGCCGGCCAAGGGAGATAAATACGAGGACTTCCC (double strand) [alkB2-b1]”, the binding result is recorded as “binds” in series [2] (setting [3]), “binds more weakly” in series [2] (setting [4]) and “binds more weakly” in series [2] (setting [5]).

As for “GCTTCCCGGCGAAGCGGCGGACAGAACGAAGGTTGGGATGGGGCAGGCCGGCCAAGGGAGGACAATTGTC (double strand) [alkB2-b3]”, the binding result is “binds” in series [2] (8:1 protein/DNA), “binds” in series [2] (setting [3]), “binds more weakly” in series [2] (setting [4]) and “binds more weakly” in series [2] (setting [5]).
